Biological target: MRP1 (Homo sapiens, UniProt P33527)
Test: Calcein efflux (MRP1 activity) in A549 tumor cells
Conditions: read-out: IC50 for inhibition of efflux of MRP1 substrate calcein

Chains of the proteins cited; added tags and fusions are not shown. Lines headed by an entry give the natural chain unless they say otherwise; changes in a name come on top.
UniProt P33527: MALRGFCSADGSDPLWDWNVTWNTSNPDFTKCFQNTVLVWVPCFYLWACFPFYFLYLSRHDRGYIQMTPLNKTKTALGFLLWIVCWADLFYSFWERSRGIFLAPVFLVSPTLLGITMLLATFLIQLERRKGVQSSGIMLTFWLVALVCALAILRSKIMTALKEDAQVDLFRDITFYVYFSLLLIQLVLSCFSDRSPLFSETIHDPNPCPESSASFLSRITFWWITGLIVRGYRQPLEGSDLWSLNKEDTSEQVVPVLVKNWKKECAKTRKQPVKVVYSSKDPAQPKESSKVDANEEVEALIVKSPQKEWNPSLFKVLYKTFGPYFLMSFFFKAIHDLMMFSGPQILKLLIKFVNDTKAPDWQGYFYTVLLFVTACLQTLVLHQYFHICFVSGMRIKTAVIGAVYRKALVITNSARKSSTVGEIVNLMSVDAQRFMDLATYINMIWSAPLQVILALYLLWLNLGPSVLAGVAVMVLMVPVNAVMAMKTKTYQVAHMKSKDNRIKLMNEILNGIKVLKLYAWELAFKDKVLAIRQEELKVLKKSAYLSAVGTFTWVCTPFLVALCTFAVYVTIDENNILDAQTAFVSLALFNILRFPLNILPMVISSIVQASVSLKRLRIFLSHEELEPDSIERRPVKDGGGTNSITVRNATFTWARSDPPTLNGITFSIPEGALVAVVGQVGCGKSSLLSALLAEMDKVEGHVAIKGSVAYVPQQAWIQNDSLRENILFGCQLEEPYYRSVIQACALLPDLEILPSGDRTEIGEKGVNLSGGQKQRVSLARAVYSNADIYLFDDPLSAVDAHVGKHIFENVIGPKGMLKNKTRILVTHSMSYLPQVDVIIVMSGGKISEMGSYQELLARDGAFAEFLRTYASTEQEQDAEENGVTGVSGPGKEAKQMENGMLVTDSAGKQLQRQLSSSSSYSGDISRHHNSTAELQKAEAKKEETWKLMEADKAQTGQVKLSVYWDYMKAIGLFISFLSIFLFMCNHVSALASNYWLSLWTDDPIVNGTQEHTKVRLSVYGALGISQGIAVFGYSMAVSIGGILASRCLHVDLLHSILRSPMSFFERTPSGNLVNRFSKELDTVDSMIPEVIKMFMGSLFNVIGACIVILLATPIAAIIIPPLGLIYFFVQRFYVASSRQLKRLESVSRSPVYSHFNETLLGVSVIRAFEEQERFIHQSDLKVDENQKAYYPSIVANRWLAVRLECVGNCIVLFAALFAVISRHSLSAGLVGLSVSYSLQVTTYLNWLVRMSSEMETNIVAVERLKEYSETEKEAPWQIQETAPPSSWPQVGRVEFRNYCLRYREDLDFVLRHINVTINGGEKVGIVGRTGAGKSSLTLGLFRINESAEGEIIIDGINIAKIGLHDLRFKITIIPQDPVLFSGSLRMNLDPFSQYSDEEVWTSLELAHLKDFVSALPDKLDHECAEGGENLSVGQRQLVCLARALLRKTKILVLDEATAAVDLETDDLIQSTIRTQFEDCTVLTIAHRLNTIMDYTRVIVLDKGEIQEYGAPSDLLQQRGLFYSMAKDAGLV

Structure (SMILES): C=CS(=O)(=O)C=C
- IC50: 5.8 nM

From patent US10786542B2 (priority 2016, dated 2020)
